≈ marks a conversion by molar mass, not a printed value.
Legend:
Cryptococcus neoformans = assay: Antifungal activity against flucytosine-resistant, Cryptococcus neoformans ATCC 90113 by colorimetric broth microdilution method; type: functional
Candida albicans = assay: Antifungal activity against Candida albicans NCPF3153 by colorimetric broth microdilution method; type: functional

`CC(=O)O[C@@H]1C[C@H]2O[C@@H]3C=C(C=O)CC[C@]3(C)[C@]1(C)[C@]21CO1` was tested, and the MIC (Cryptococcus neoformans) was 4 µg/mL (≈ 13.1 µM) and the MIC (Candida albicans) was 2 µg/mL (≈ 6.53 µM).

From ChEMBL document CHEMBL4422700, “Trichothecenes from a Soil-Derived Trichoderma brevicompactum” (J Nat Prod, 2019)
